Source: PMC2677997 (Bioorganic & medicinal chemistry, 2009)

Chains of the proteins cited; added tags and fusions are not shown. Residues count along the entry.
UniProt P0DPI0, 1-425 limits assumed: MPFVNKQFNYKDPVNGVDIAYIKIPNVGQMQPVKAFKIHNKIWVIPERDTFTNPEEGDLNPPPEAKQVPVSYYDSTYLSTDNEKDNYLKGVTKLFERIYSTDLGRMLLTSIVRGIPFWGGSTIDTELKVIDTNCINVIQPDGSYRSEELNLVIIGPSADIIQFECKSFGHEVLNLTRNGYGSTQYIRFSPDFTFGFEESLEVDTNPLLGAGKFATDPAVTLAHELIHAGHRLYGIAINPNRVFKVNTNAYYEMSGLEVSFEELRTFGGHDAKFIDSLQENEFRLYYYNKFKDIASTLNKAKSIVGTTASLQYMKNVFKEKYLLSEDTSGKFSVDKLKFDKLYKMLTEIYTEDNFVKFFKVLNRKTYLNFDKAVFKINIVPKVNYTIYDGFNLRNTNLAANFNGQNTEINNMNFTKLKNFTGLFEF

Biological target: BoNT/A LC (BoNTA-LC 1-425) (Clostridium botulinum, UniProt P0DPI0)
Format: biochemical
Conditions: read-out: IC50 (μM) BoNT/A

## O=C(CS)Nc1cc(-c2cccc(Cl)c2)n[nH]1 [Compound 12g, N-(3-(3-Chlorophenyl)-1H-pyrazol-5-yl)-2-mercaptoacetamide]
  IC50: 5.6 ± 0.2 µM
